# Source: paper doi:10.1101/2024.06.08.598097
# Negatives hold for the conditions tested.
# Biological target: FadD1 (Pseudomonas aeruginosa PAO1) (UniProt Q9HYU4)
# Experiment: EMSA
# Details: residues 1-562; probe letters rebuilt from the primers and the genome
sequence,measurement,value
ATCATCCTGAGCATCTCCGAGAGCACGGTGAACTTCCACCACAAGAACATCCAGAAGAAGTTCGACGCGCCGAACAAGACGCTGGCTGCCGCCTACGCCGCGGCGCTGGGTCTCATCTGAAGCGCAGGGCGCGCCGGTCGGCGCGCCCTACCAGATCTGGCAGGTTGCCTGCCGTTCATCCTCCTTTAGTCTTCCCCCTCATGTGTGTGCTGGTATGTCCTCCGACTGAGAGGGCCCAGGAGTATCAGGGTAGGGATGCCGCCTTTTTTTCTCGGCCGGCACGACACGGGGACTTGGTCATGATCGAATTGCTCTCTGAATCGCTGGAA (double strand) [rhlI promoter],binding result,no binding
